Kd data for one substance are collected here from publication PMC7160669 (Biochemistry, 2019).

Holding throughout (settings): Conditions as for WT
Test [1] has as its target ChdC (SaChdC; coproheme decarboxylase) (Staphylococcus aureus, UniProt A6QEP0, K129A).
Test [2] deals with ChdC (SaChdC; coproheme decarboxylase) (Staphylococcus aureus, UniProt A6QEP0, Y133F).
For test [3], the target named is ChdC (SaChdC; coproheme decarboxylase) (Staphylococcus aureus, UniProt A6QEP0, E120L).

As for coproheme, the figures for the Kd in test [1], in test [2] and in test [3] were 500 ± 50 nM, 1700 ± 300 nM and 1300 ± 70 nM, respectively.

Broadly, the Kd is the equilibrium constant for the complex coming apart. Low readings indicate a tighter complex, high ones a looser complex.
